# Test: Consumer sensory panel, overall liking of turkey breast roll and bologna
# Conditions: scale of 1 to 9 (9=strongly like)
smiles,measurement,setting,value
CC(=O)CCC(=O)[O-].[Na+] [sodium levulinate],Mean score for overall liking,"bologna, 1% additive, 112 consumers",6.0
same,Mean score for overall liking,"bologna, 2% additive, 112 consumers",6.0
same,Mean score for overall liking,"turkey breast roll, 2% additive, 132 consumers",6.6
same,Mean score for overall liking,"turkey breast roll, 3% additive, 132 consumers",6.6
